Data taken from PubChem BioAssay AID288 (DTP/NCI, 2004).
Records with an inconclusive call do not appear. How the source made its calls: active means survival T/C of 150% or more; inactive means T/C below 125% in these data.

Tested on: BDF1 mice, M5076 sarcoma s.c., survival/tumor T/C
Test: NCI In Vivo Anticancer Drug Screen. Data for tumor model Sarcoma M5076 (subcutaneous) in B6D2F1 (BDF1) mice
Conditions: endpoint: median survival time, schedule: Q01DX009 (ip), vehicle: saline with Tween-80, higher = longer survival
Procedure: The antitumor activity of compounds was measured in mice bearing transplantable tumors. Survival or tumor size were measured and the results are expressed as the measurement made in the treated group (T) divided by the measurement made in the vehicle treated control group (C). The tumor model used in this assay is Sarcoma M5076 (subcutaneous) in B6D2F1 (BDF1) mice

Measured: T/C

[Sm].[c-]1[c-][c-][cH-][c-]1.[c-]1[c-][c-][cH-][c-]1.[c-]1[c-][c-][cH-][c-]1
inactive: dose: 50.0 mg/kg/injection 89 % of control | dose: 100.0 mg/kg/injection 97 % of control | dose: 200.0 mg/kg/injection 111 % of control
